Data on one molecule can be found in ChEMBL document CHEMBL3612042 (J Med Chem, 2015).

The experiment has as its target T1, Biotin--[acetyl-CoA-carboxylase] ligase (Mycobacterium tuberculosis (strain ATCC 25618 / H37Rv)) (UniProt I6YFP0).
T1 sequence (whole entry): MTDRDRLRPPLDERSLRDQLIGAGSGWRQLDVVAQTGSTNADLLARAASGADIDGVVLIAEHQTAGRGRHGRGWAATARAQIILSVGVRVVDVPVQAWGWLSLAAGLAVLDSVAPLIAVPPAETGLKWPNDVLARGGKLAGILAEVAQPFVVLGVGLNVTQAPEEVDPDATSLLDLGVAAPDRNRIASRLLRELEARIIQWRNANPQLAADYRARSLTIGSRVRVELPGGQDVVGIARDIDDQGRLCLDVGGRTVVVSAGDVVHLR

On to `Nc1ncnc2c1ncn2COCCNS(=O)(=O)NC(=O)CCCC[C@@H]1SC[C@@H]2NC(=O)N[C@@H]21`, for which the ΔTm was 14.7 °C.
